Results of unrelated studies side by side (data: NIAID ChemDB).

Shared fields: whole-cell or culture tests; species: HIV-1; cells: MT-4; measure: EC50

An empty or dashed field is not shown. ECn: concentration that inhibits the pathogen or its effect by n%. Rows are shuffled and stem from different studies.

structure	strain or isolate	changes	read by	result
CC(=O)c1ccc(C)cc1NC(C(N)=O)c1c(Cl)cccc1Cl	HXB2 (RT E138A S162C E169D T200A L214F) Clinical isolate	RT-E138A S162C E169D T200A L214F	cytopathic effect / MTT	0.171 µM
Fc1cccc(F)c1Cn1c(-c2c(F)cccc2F)nc2c(Br)cccc21	-	RT-Y188C	cytopathic effect / MTT	3.4 µM
Cc1cccc(Cl)c1-n1nnnc1SCC(=O)Nc1ccccc1Cl	-	-	p24	<10 µM
Nc1ccn([C@H]2CC[C@@H](CO)O2)c(=O)n1	-	-	syncytia	0.025 µM
C#Cc1ccc(Nc2nccc(Oc3c(C)cc(-c4cn(CCC(=O)OC)nn4)cc3C)n2)cc1	IIIB	F227L and V106A	MTT	>23.76 µM
CC(C)CN(C[C@@H](O)[C@H](Cc1ccccc1)NC(=O)O[C@H]1CCOC1)S(=O)(=O)c1ccc(N)cc1	NL4-3	PR-D30N N88D	p24	<0.04 µM
CC(C)Nc1cccnc1N1CCN(C(=O)c2cc3cc(NS(C)(=O)=O)ccc3[nH]2)CC1	-	RT-K100I	cytopathic effect / MTT	2.5 µM
Cc1cn([C@H]2C[C@H](N=[N+]=[N-])[C@@H](CO)O2)c(=O)[nH]c1=O	39RW024 (subtype A)	-	MTT	0.001 µg/mL
CO[P@](=O)(c1cc(C)cc(/C=C/C#N)c1)c1c(C(N)=O)[nH]c2ccc(Cl)c(F)c12	BH10	K103N	-	0.0003 µM
Cc1cc(C)c(-n2nnnc2SCC(=O)Nc2ccccc2I)c(C)c1	-	-	p24	<10 µM
Cc1cn([C@H]2C[C@H](N=[N+]=[N-])[C@@H](CO)O2)c(=O)[nH]c1=O	NMR50	-	cytopathic effect / trypan blue	0.004 µM
Cc1cn([C@H]2C=C[C@@H](COC(=O)NCCSC(=O)OC[C@@H]3C=C[C@H](n4cc(C)c(=O)[nH]c4=O)O3)O2)c(=O)[nH]c1=O	NNRTI-resistant (RT K103N Y181C)	RT-K103N Y181C	cytopathic effect / MTT	>20 µM
Cn1ncc2c1S(=O)(=O)N(CCc1ccccc1)C(=O)N2CCc1ccc(Br)cc1	IIIB	-	MTT	>6.7 µM
CC(=O)Oc1ccc(/C=C/C(=O)O[C@H](C(=O)O)[C@H](OC(=O)/C=C/c2ccc(OC(C)=O)c(OC(C)=O)c2)C(=O)O)cc1OC(C)=O	NL4-3	AR117-resistant	-	>93 µM
CCc1cccc2c1nc(-c1c(F)cccc1F)n2Cc1c(F)cccc1F	-	RT-K101E	cytopathic effect / MTT	2.82 µM
Nc1ccn([C@H]2CC[C@@H](CO)O2)c(=O)n1	NL4-3	+Vpx	-	0.308 µM
Nc1cccc2c1nc(-c1c(F)cccc1F)n2Cc1c(F)cccc1F	4XAZT/L100I (RT D67N K70R L100I T215Y K219Q)	RT-D67N K70R L100I T215Y K219Q	cytopathic effect / MTT	0.3 µM
Cn1ncc2c1S(=O)(=O)N(CCc1ccccc1)C(=O)N2CCC#N	IIIB	-	MTT	>251.4 µM
CC(C)c1nc(CN(C)C(=O)N[C@H](C(=O)N[C@@H](Cc2ccccc2)C[C@H](O)[C@H](Cc2ccccc2)NC(=O)OCc2cncs2)C(C)C)cs1	NRTI resistant	RT K70R T215Y 69SS A62V E79K V118I M184V E203K L210W	cytopathic effect / MTT	0.1 µg/mL
COC(=O)N[C@H](C(=O)N[C@@H](Cc1ccccc1)[C@@H](O)CN(Cc1ccc(-c2ccccn2)cc1)NC(=O)[C@@H](NC(=O)OC)C(C)(C)C)C(C)(C)C	NL4-3	L10F V32I M46I I45M A71V I84V APV resistant	-	0.66 µM
O=C1c2ccccc2C(=O)N1CCOC(=S)N(C(=O)c1ccccc1)c1ccc(Cl)cc1	IIIB	RT-K103R V179D P225H	cytopathic effect / MTT	>100 µM
C1CNCCNCCCN2CCCNCCNCCCN(C1)CC2	NL4-3	AMD3100-resistant	cytopathic effect / MTT	>50 µg/mL
Cn1ncc2c1S(=O)(=O)N(CCc1ccccc1)C(=O)N2CCc1ccccc1Br	IIIB	-	MTT	>271.1 µM
Cc1ccnc2c1NC(=O)c1cccnc1N2C1CC1	NL4-3	+Vpx	-	0.295 µM
C#Cc1ccc(Nc2nccc(Oc3c(C)cc(-c4cn(CC(=O)Nc5ccc(Br)cc5)nn4)cc3C)n2)cc1	IIIB	K103N	MTT	>19.78 µM
CC(C)(C)NC(=O)[C@@H]1C[C@@H]2CCCC[C@@H]2CN1C[C@@H](O)[C@H](Cc1ccccc1)NC(=O)[C@H](CC(N)=O)NC(=O)c1ccc2ccccc2n1	NL4-3	A28S L33F V82I GRL04810-resistant	-	0.032 µM
Cc1cn([C@@H]2O[C@H](CO[Si](C)(C)C(C)(C)C)C3(OS(=O)(=O)C=C3N)[C@H]2O[Si](C)(C)C(C)(C)C)c(=O)n(C)c1=O	Recombinant mutant	RT-A98S E138A	cytopathic effect / MTT	0.315 µM
CCC(C)Nc1nc(Cc2c(F)cccc2F)c(C)c(=O)[nH]1	IIIB	-	cytopathic effect / MTT	0.06 µM
Cc1cn([C@H]2C[C@H](N=[N+]=[N-])[C@@H](CO)O2)c(=O)[nH]c1=O	IIIB	K103N	MTT	0.019 µM
CC(C)=CCN1Cc2cc(Cl)cc3[nH]c(=S)n(c23)C[C@@H]1C	MF	-	antigen	~0.1 µM
O=C1c2ccccc2C(=O)N1CCOC(=S)N(C(=O)c1ccco1)c1ccc(Cl)cc1	N119 nevirapine-resistant (RT Y181C)	RT-Y181C	cytopathic effect / MTT	>100 µM
Nc1ccn([C@H]2CC[C@@H](CO)O2)c(=O)n1	IIIB-AZT-1 (RT D67N K70R V108A I135T T215Y)	RT-D67N K70R V108A I135T T215Y	-	0.55 µM
Nc1ccn([C@H]2CC[C@@H](CO)O2)c(=O)n1	HXB2-D (RT K65R M184V)	RT-K65R M184V	p24	5.8 µM
CCCCNc1nc(Cc2c(F)cccc2F)c(C)c(=O)[nH]1	-	RT-Y181C	cytopathic effect / MTT	0.7 µM
Cc1cn([C@H]2C[C@H](N=[N+]=[N-])[C@@H](COC(=O)NCCSC(=O)OC[C@@H]3CC[C@H](n4cnc5c(=O)[nH]cnc54)O3)O2)c(=O)[nH]c1=O	WT	-	cytopathic effect / MTT	1 µM
Cc1cn([C@H]2C=C[C@@H](CO)O2)c(=O)[nH]c1=O	NL4-3	+Vpx	-	2.376 µM
O=C1c2ccccc2C(=O)N1CCOC(=S)N(C(=O)c1ccco1)c1ccc([N+](=O)[O-])cc1	N119 nevirapine-resistant (RT Y181C)	RT-Y181C	cytopathic effect / MTT	>100 µM
CC(=O)Oc1ccc(/C=C/C(=O)O[C@@H](C(=O)O)[C@@H](OC(=O)/C=C/c2ccc(OC(C)=O)c(OC(C)=O)c2)C(=O)O)cc1OC(C)=O	NL4-3	-	cytopathic effect / MTT	8 µM
Fc1cccc(F)c1[C@H]1SCc2nc3ccccc3n21	RF	-	cytopathic effect / MTT	0.1 µg/mL
Nc1ccn([C@H]2CC[C@@H](CO)O2)c(=O)n1	LZ-05.95	-	cytopathic effect	1.8 µM
Cc1cn([C@H]2C[C@H](N=[N+]=[N-])[C@@H](COC(=O)NCCSC(=O)OC[C@H]3O[C@@H](n4cc(C)c(=O)[nH]c4=O)C[C@@H]3N=[N+]=[N-])O2)c(=O)[nH]c1=O	NNRTI-resistant (RT K103N Y181C)	RT-K103N Y181C	cytopathic effect / MTT	5 µM
Cn1ncc2c1S(=O)(=O)N(CCc1ccccc1)C(=O)N2CCc1cccc(C#N)c1	IIIB	-	MTT	>307.1 µM
CC(=O)Nc1ccc(Cl)c(NC(=O)CSc2nnnn2-c2c(C)cc(C)cc2C)c1	-	-	p24	<10 µM
O=C(O)c1cc(CN2CCCNCCNCCCNCC2)ccc1CN1CCCNCCNCCCNCC1	AOM	-	cytopathic effect / MTT	>10 µg/mL
O=C1c2ccccc2C(=O)N1CCOC(=S)N(C(=O)c1cccnc1Cl)c1ccc(Cl)cc1	IIIB	RT-K103R V179D P225H	cytopathic effect / MTT	>100 µM
CCn1c(=O)c(C)cn([C@@H]2O[C@H](CO[Si](C)(C)C(C)(C)C)C3(OS(=O)(=O)C=C3N)[C@H]2O[Si](C)(C)C(C)(C)C)c1=O	HXB2 (RT E138A S162C E169D T200A L214F) Clinical isolate	RT-E138A S162C E169D T200A L214F	cytopathic effect / MTT	1.618 µM
CC(=O)N(C)c1cccc2c1nc(-c1c(F)cccc1F)n2Cc1c(F)cccc1F	-	RT-L100I	cytopathic effect / MTT	0.16 µM
Cn1ncc2c1S(=O)(=O)N(CCc1ccccc1)C(=O)N2CCc1cccc(Cl)c1	IIIB	-	MTT	>300.1 µM
CC(C)CN(C[C@@H](O)[C@H](Cc1ccccc1)NC(=O)[C@H](CC(N)=O)NC(=O)c1ccc2ccccc2n1)C(=O)NC(C)(C)C	NL4-3	PR-L10R M46I V82T	p24	<0.1 µM
c1cc(CN2CCCNCCNCCCNCC2)ccc1CN1CCCNCCNCCCNCC1	92BR014 (subtype B)	-	MTT	0.004 µg/mL
C#Cc1ccc(Nc2nccc(Oc3c(C)cc(-c4cn(CCc5ccccc5)nn4)cc3C)n2)cc1	IIIB	Y181C	MTT	>5.66 µM
CC(C)Nc1cccnc1N1CCN(C(=O)c2cc3cc(NS(C)(=O)=O)ccc3[nH]2)CC1	FO-08.96 (HXB2 RT F77L F116Y Q151M)	RT-F77L F116Y Q151M	cytopathic effect	0.06 µM
CC(C)(C)NC(=O)[C@@H]1C[C@@H]2CCCC[C@@H]2CN1C[C@@H](O)[C@H](Cc1ccccc1)NC(=O)[C@H](CC(N)=O)NC(=O)c1ccc2ccccc2n1	NL4-3	-	p24	<0.025 µM
Cc1cn([C@H]2C[C@H](N=[N+]=[N-])[C@@H](CO)O2)c(=O)[nH]c1=O	RF	-	cytopathic effect / MTT	0.02 µM
c1cc(CN2CCCNCCCNCCNCCC2)ccc1CN1CCCNCCCNCCNCCC1	RF	-	cytopathic effect / MTT	0.22 µg/mL
CNc1cccc2c1nc(-c1c(F)cccc1F)n2Cc1c(F)cccc1F	-	RT-Y181C	cytopathic effect / MTT	0.26 µM
C#Cc1ccc(Nc2nccc(Oc3c(C)cc(-c4cn(Cc5ccc(C#N)cc5)nn4)cc3C)n2)cc1	IIIB	Y188L	MTT	>7.18 µM
Cc1cccc(Cl)c1-n1nnnc1SCC(=O)Nc1ccccc1[N+](=O)[O-]	-	-	p24	<10 µM
O=c1[nH]cnc2c1ncn2[C@H]1CC[C@@H](CO)O1	Recombinant mutant	RT-A98S	cytopathic effect / MTT	3.411 µM
CC(C)Nc1nc(Cc2c(F)cccc2F)cc(=O)[nH]1	IIIB	-	cytopathic effect / MTT	0.4 µM
CNC(C)[C@H]1O[C@H](O[C@@H]2[C@@H](O)[C@H](O[C@@H]3OC[C@@](C)(O)[C@@H](NC)[C@@H]3O)[C@@H](NC(=O)[C@@H](N)CCCN=C(N)N)C[C@H]2NC(=O)[C@@H](N)CCCN=C(N)N)[C@H](NC(=O)[C@@H](N)CCCN=C(N)N)[C@@H](O)[C@@H]1O	NL4-3	-	cytopathic effect / MTT	15 µM
O=c1cc(Cc2c(F)cccc2F)nc(NC2CCCC2)[nH]1	IIIB	-	cytopathic effect / MTT	0.2 µM
COc1ccc(S(=O)(=O)N(CC(C)C)C[C@@H](O)[C@H](Cc2ccccc2)NC(=O)O[C@H]2CO[C@H]3OCC(F)(F)[C@H]32)cc1	NL4-3	-	-	0.0005 µM
O=[N+]([O-])c1cc(CN2CCCNCCNCCCNCC2)cc(CN2CCCNCCNCCCNCC2)c1	AOM	-	cytopathic effect / MTT	0.65 µg/mL
Cc1cc(C)c(-n2nnnc2SCC(=O)Nc2ccccc2C#N)c(C)c1	-	-	p24	<10 µM
Cc1cn([C@H]2C[C@H](N=[N+]=[N-])[C@@H](CO)O2)c(=O)[nH]c1=O	IIIB	-	cytopathic effect	0.0122 µM
C[C@H](Cn1cnc2c(N)ncnc21)OCP(=O)(O)O	NL4-3	-	-	2.877 µM
Cc1cc(C)c(-n2nnnc2SCC(=O)Nc2ccc(C)cc2Cl)c(C)c1	-	-	p24	<10 µM
C#Cc1ccc(Nc2nccc(Oc3c(C)cc(-c4cn(Cc5cccc(C(=O)OC)c5)nn4)cc3C)n2)cc1	IIIB	-	MTT	0.072 µM
O=C(CSc1nnnn1-c1cccc2ccccc12)Nc1ccccc1	-	-	p24	<10 µM
COc1ccc2c(c1)N(C(=O)OC(C)C)[C@@H](CSC)C(=S)N2	Recombinant mutant	RT-A98S E138A	cytopathic effect / MTT	0.003 µM
C#Cc1ccc(Nc2nccc(Oc3c(C)cc(-c4cn(Cc5ccccc5)nn4)cc3C)n2)cc1	IIIB	F227L and V106A	MTT	>8.55 µM

A second listing of 6 rows from above:

structure,strain or isolate,changes,read by,result
Cc1cc(C)c(-n2nnnc2SCC(=O)Nc2ccccc2I)c(C)c1,-,-,p24,<10 µM
CC(C)Nc1cccnc1N1CCN(C(=O)c2cc3cc(NS(C)(=O)=O)ccc3[nH]2)CC1,-,RT-K100I,cytopathic effect / MTT,2.5 µM
CC(C)CN(C[C@@H](O)[C@H](Cc1ccccc1)NC(=O)[C@H](CC(N)=O)NC(=O)c1ccc2ccccc2n1)C(=O)NC(C)(C)C,NL4-3,PR-L10R M46I V82T,p24,<0.1 µM
C1CNCCNCCCN2CCCNCCNCCCN(C1)CC2,NL4-3,AMD3100-resistant,cytopathic effect / MTT,>50 µg/mL
Cc1cn([C@H]2C[C@H](N=[N+]=[N-])[C@@H](CO)O2)c(=O)[nH]c1=O,RF,-,cytopathic effect / MTT,0.02 µM
Cn1ncc2c1S(=O)(=O)N(CCc1ccccc1)C(=O)N2CCc1cccc(C#N)c1,IIIB,-,MTT,>307.1 µM